Type in all cases: cell-based, Zika virus
Data set [1] deals with ZIKV Paraiba/2015. Put plainly: Viral inhibition assay, post-infection treatment, Vero cells. The following applies: for SI (MTT): CC50 (MTT)/EC50, Paraiba/2015, Vero; for SI (XTT): CC50 (XTT)/EC50, Paraiba/2015, Vero. (Formazan colour is commonly taken as a measure of viable cells.)
Data set [2] has as its system ZIKV Paraiba/2015. Briefly: Viral inhibition assay, co-treatment, Vero cells. The following applies: for SI (MTT): CC50 (MTT)/EC50, Paraiba/2015, Vero; for SI (XTT): CC50 (XTT)/EC50, Paraiba/2015, Vero.
A further data set relates to ZIKV MR-766 strain. Put plainly: Viral inhibition assay, post-treatment, old World strain, Vero cells. The following applies: for SI (MTT): CC50 (MTT)/EC50, MR-766, Vero; for SI (XTT): CC50 (XTT)/EC50, MR-766, Vero.
A further data set deals with ZIKV PRVABC59 strain. Briefly: Viral inhibition assay, post-treatment, new World strain, Vero cells. The following applies: for SI (MTT): CC50 (MTT)/EC50, PRVABC59, Vero; for SI (XTT): CC50 (XTT)/EC50, PRVABC59, Vero.
Data set [3] has as its system ZIKV Paraiba/2015. Briefly: Viral inhibition assay, post-treatment, human A549 cells. The following applies: for SI (MTT): CC50 (MTT)/EC50, Paraiba/2015, A549 cells; for SI (XTT): CC50 (XTT)/EC50, Paraiba/2015, A549 cells.

Counter-ions that a name gives are not always drawn.

As for `CC[C@H](CC#N)OC(=O)N[C@@H](C)c1cccc(NC(=O)Nc2ccc(-c3cnco3)c(OC)c2)c1` [AVN-944], the “SI (MTT)” value with ZIKV Paraiba/2015 [1] is listed as 278.16; with ZIKV Paraiba/2015 [2] it was 34.16; in the data set on ZIKV MR-766 strain it was 826.06; with ZIKV PRVABC59 strain, 717.37; in the data set on ZIKV Paraiba/2015 [3], greater than 1000.00. The “SI (XTT)” value is greater than 1377.55 in the data set on ZIKV Paraiba/2015 [1]; greater than 169.17 in the data set with ZIKV Paraiba/2015 [2]; greater than 4090.91 in the data set with ZIKV MR-766 strain; greater than 3552.63 in the data set on ZIKV PRVABC59 strain; greater than 1000.00 in the data set on ZIKV Paraiba/2015 [3].
For the molecule `COc1c(C)c2c(c(O)c1C/C=C(\C)CCC(=O)O)C(=O)OC2` [Mycophenolic acid], the “SI (MTT)” value is reported as 64.65 in the data set on ZIKV Paraiba/2015 [1]; 6.59 in the data set on ZIKV Paraiba/2015 [2]; 1836.00 with ZIKV MR-766 strain; 1251.82 in the data set with ZIKV PRVABC59 strain; greater than 76.92 in the data set on ZIKV Paraiba/2015 [3]. Also, the “SI (XTT)” value in the data set on ZIKV Paraiba/2015 [1] is greater than 316.90; with ZIKV Paraiba/2015 [2] it was greater than 32.33; in the data set with ZIKV MR-766 strain it was greater than 9000.00; with ZIKV PRVABC59 strain it was greater than 6136.36; in the data set with ZIKV Paraiba/2015 [3] it was greater than 76.92.
As to `NCC(=O)Nc1ccc(-n2nc(C(F)(F)F)cc2-c2ccc3c(ccc4ccccc43)c2)cc1` [OSU-03012], the “SI (MTT)” value with ZIKV Paraiba/2015 [1] is recorded as 0.76; with ZIKV Paraiba/2015 [2], 3.61; with ZIKV MR-766 strain it was 7.89; with ZIKV PRVABC59 strain, 3.80; in the data set with ZIKV Paraiba/2015 [3] it was greater than 238.09. In addition, the “SI (XTT)” value with ZIKV Paraiba/2015 [1] is recorded as 15.77; with ZIKV MR-766 strain, 163.58; in the data set on ZIKV PRVABC59 strain it was 78.87; in the data set on ZIKV Paraiba/2015 [3] it was greater than 238.09.
`COC1=CC(c2cc3ccccc3[nH]2)=N/C1=C\c1[nH]c(C)cc1C` [Obatoclax, Obatoclax mesylate]: the “SI (MTT)” value is 27.89 in the data set on ZIKV Paraiba/2015 [1]; 60.58 in the data set with ZIKV Paraiba/2015 [2]; 47.49 in the data set with ZIKV MR-766 strain; 42.85 in the data set with ZIKV PRVABC59 strain; greater than 78.13 in the data set on ZIKV Paraiba/2015 [3]. Also, the “SI (XTT)” value in the data set on ZIKV Paraiba/2015 [1] was 95.94; with ZIKV Paraiba/2015 [2] it was 208.41; in the data set with ZIKV MR-766 strain, 163.35; in the data set with ZIKV PRVABC59 strain, 147.41; in the data set on ZIKV Paraiba/2015 [3] it was greater than 78.13.
With `CCCCCC[C@H]1C(=O)O[C@H](C)[C@H](NC(=O)c2cccc(NC=O)c2O)C(=O)O[C@@H](C)[C@@H]1OC(=O)CC(C)C` [Antimycin A], the “SI (MTT)” value was 25.64 with ZIKV Paraiba/2015 [1]; 14.65 in the data set on ZIKV Paraiba/2015 [2]; 1709.33 with ZIKV MR-766 strain; 7.01 in the data set on ZIKV PRVABC59 strain; greater than 29.24 in the data set on ZIKV Paraiba/2015 [3]. The “SI (XTT)” value is greater than 675.00 in the data set with ZIKV Paraiba/2015 [1]; greater than 385.71 in the data set with ZIKV Paraiba/2015 [2]; >45,000.00 with ZIKV MR-766 strain; greater than 184.43 in the data set on ZIKV PRVABC59 strain; greater than 29.24 in the data set with ZIKV Paraiba/2015 [3].
With “2′,3′,5′-Triacetyl-6-azauridine [Azaribine]”, the “SI (MTT)” value in the data set on ZIKV Paraiba/2015 [1] was 146.29; with ZIKV Paraiba/2015 [2] it was 91.51; in the data set with ZIKV MR-766 strain, 97.53; with ZIKV PRVABC59 strain it was 211.61; with ZIKV Paraiba/2015 [3], greater than 73.53. For the same molecule, the “SI (XTT)” value was greater than 833.33 in the data set on ZIKV Paraiba/2015 [1]; greater than 521.23 with ZIKV Paraiba/2015 [2]; greater than 555.56 with ZIKV MR-766 strain; greater than 1205.36 with ZIKV PRVABC59 strain; greater than 73.53 with ZIKV Paraiba/2015 [3].
Regarding `O=c1cnn([C@@H]2O[C@H](CO)[C@@H](O)[C@H]2O)c(=O)[nH]1` [Azauridine, 6-azauridine], the “SI (MTT)” value is 36.32 in the data set on ZIKV Paraiba/2015 [1]; 1.19 in the data set with ZIKV Paraiba/2015 [2]; 205.00 with ZIKV MR-766 strain; 106.71 in the data set with ZIKV PRVABC59 strain; greater than 113.64 in the data set on ZIKV Paraiba/2015 [3]. The “SI (XTT)” value in the data set with ZIKV Paraiba/2015 [1] is reported as greater than 314.69; in the data set with ZIKV Paraiba/2015 [2] it was greater than 10.36; in the data set on ZIKV MR-766 strain it was greater than 1776.32; with ZIKV PRVABC59 strain, greater than 924.66; with ZIKV Paraiba/2015 [3], greater than 113.64.
Consider `COc1c(C)c2c(c(O)c1C/C=C(\C)CCC(=O)OCCN1CCOCC1)C(=O)OC2` [Mycophenolate mofetil], for which the “SI (MTT)” value in the data set with ZIKV Paraiba/2015 [1] is on record as 47.24; with ZIKV Paraiba/2015 [2], 73.26; with ZIKV MR-766 strain, 692.92; in the data set on ZIKV PRVABC59 strain it was 1385.83; in the data set with ZIKV Paraiba/2015 [3], greater than 60.24. Further, the “SI (XTT)” value is greater than 383.52 with ZIKV Paraiba/2015 [1]; greater than 594.71 with ZIKV Paraiba/2015 [2]; greater than 5625.00 with ZIKV MR-766 strain; >11,250.00 in the data set with ZIKV PRVABC59 strain; greater than 60.24 in the data set with ZIKV Paraiba/2015 [3].
On to `O=C(O)C1=CC(=C(c2ccc(O)c(C(=O)O)c2)c2ccc(O)c(C(=O)O)c2)C=CC1=O` [ATA, Aurintricarboxylic acid], for which the “SI (MTT)” value in the data set with ZIKV Paraiba/2015 [1] is greater than 54.00; with ZIKV Paraiba/2015 [2] it was greater than 780.34; with ZIKV MR-766 strain, greater than 167.08; with ZIKV PRVABC59 strain, greater than 284.81; in the data set on ZIKV Paraiba/2015 [3], greater than 7.49. Moreover, the “SI (XTT)” value with ZIKV Paraiba/2015 [1] is listed as greater than 54.00; with ZIKV Paraiba/2015 [2], greater than 780.34; with ZIKV MR-766 strain it was greater than 167.08; with ZIKV PRVABC59 strain, greater than 284.81; in the data set with ZIKV Paraiba/2015 [3] it was greater than 7.49.
Turning to `Cc1c(-c2ccc(-c3ccccc3F)cc2)nc2ccc(F)cc2c1C(=O)O` [Brequinar, Brequinar sodium salt hydrate], the “SI (MTT)” value in the data set with ZIKV Paraiba/2015 [1] was 157.42; with ZIKV Paraiba/2015 [2], 27.29; in the data set on ZIKV MR-766 strain it was 4754.00; in the data set with ZIKV PRVABC59 strain it was 2971.25; in the data set with ZIKV Paraiba/2015 [3] it was greater than 2500.00. Further, the “SI (XTT)” value with ZIKV Paraiba/2015 [1] is on record as greater than 894.04; in the data set with ZIKV Paraiba/2015 [2], greater than 154.99; in the data set with ZIKV MR-766 strain, >27,000.00; in the data set with ZIKV PRVABC59 strain it was >16,875.00; with ZIKV Paraiba/2015 [3] it was greater than 2500.00.
For `NC(=O)c1[nH]nc([C@@H]2O[C@H](CO)[C@@H](O)[C@H]2O)c1O` [Pyrazofurin], the “SI (MTT)” value is 45.35 in the data set with ZIKV Paraiba/2015 [1]; 6.93 in the data set on ZIKV Paraiba/2015 [2]; 304.04 in the data set with ZIKV MR-766 strain; 284.84 with ZIKV PRVABC59 strain; greater than 151.52 in the data set on ZIKV Paraiba/2015 [3]. In addition, the “SI (XTT)” value in the data set on ZIKV Paraiba/2015 [1] is recorded as greater than 226.51; in the data set with ZIKV Paraiba/2015 [2], greater than 34.55; in the data set with ZIKV MR-766 strain, greater than 1516.85; with ZIKV PRVABC59 strain, greater than 1421.06; in the data set on ZIKV Paraiba/2015 [3] it was greater than 151.52.
